Human monoclonal antibodies against the spike receptor-binding domain (heavy:light variable regions). IC50 against pseudoviruses bearing the spike of naturally observed variants; lower = stronger; >10 µg/ml means not reached at the top dose. No active / inactive call. The stated detection limit is 0.0005 µg/ml; values near or below 0.001 µg/ml lie at the floor of the assay.
B1: BD55-6572 (protein)
chain 1: QVQLQESGPGLVKPSQILSLTCTVSGGSISSGGYYWSWVRQHPGKGLEWIGNIYYTGSTYYKPSLKSRITISVDTSKNQFSLILSSVTAADTAIYYCARGSYYAAGTYYNDYWGQGTLVTVSS
chain 2: SSELTQDPAVSVALGQTVRITCQGDTLRTYFASWYQQKPGQAPLLVIYGKNNRPSGIPDRFSGSSSGNTASLTITGAQAEDEADYYCNSRDSTTYHLEVFGGGTKLTVL
B2: BD55-6573 (protein)
chain 1: QLRLQESGPGLVKPAKTLSLTCTVSGGSIGSTSSYWGWIRQPPGKGLEWIGIIHHSGTTNYNPSLKSRVSISVDMSKNQFSLDLTSVTAADTAIYYCARDILYFGEGAFDIWGQGTMVIVSS
chain 2: QAGLIQPPSVSKGVRQTATLTCTGDNNNVGNQGAAWLQQHQGHPPRLLSYRNNNRPSGISERFSASRSGNTASLTITGLQPEDEAEYYCSSWDGSLSAWEFGGGTKLTVL
B3: BD55-6577 (protein)
chain 1: EVQLVESGGGLVKPGRSLRLSCTASGFIFGDYAMSWFRQAPGKGLEWVGFIRTKAYDATTEYAASVRGRFIISRDDSRSIAYLQMNSLKTEDTAVYYCSREGQLPYYYYYAMDVWGQGTTVSVSS
chain 2: DIQMTQSPSSLSASVGDRVSITCRASQSISFYLNWYQQKPGKAPKLLIYAASSLHSGVPSRFSGSGSGTDFTLTISSLQPEDFATYYCQHSYSVPLTFGGGTKVEIK
B4: BD55-6579 (protein)
chain 1: QVTLKESGPVLVKPTETLTLTCTVSGFSLTNTLIGVSWVRQPPGKALEWLAHIFSNDETSYNTSLRNRFTISKGTSKSQVVLTMTNMDPVDTATYFCARMTFIHTALGYFYYMDVWGKGTTVTVSS
chain 2: DIQMTQSPSTLSASVGDRVTITCRASQSISDWLAWYQQKAGKAPKLLIYRASILESGVPSRFSGSGSGTEFTLTISSLQPDDFATYYCQQYNGYFHTFGQGTKLEIK
B5: BD55-6585 (protein)
chain 1: EVQLLESGGGLVQPGGSLRLSCVASGFTFSNYAMSWVRQTPGKGLEWVSAISGSGTGAYYADPVRGRFTTYYADSVQGRFTISRDNSKNTVYLQMNSLRAEDSAVYYCAKDPPNYYYYGSGSFEYWGQGTLVTVSS
chain 2: DVVMTQSPLSLPVTLGQPASISCRSSQSLVYSDGNTFLSWFHQRPGQSPRRLIYKVSNRDSGVPDRFSGSGSGTDFTLKISRVEAEDVGVFYCMQGTNWPPTFGQGTKVEIK
B6: BD55-6588 (protein)
chain 1: QEQLAESGGGVVQPGRSLRLSCAASGFTFENYAMHWVRQAPGKGLEWVAVASYDGRKKFYADSVKGRFTISRDNYKNTLFLQVNSLRAEDTAVYYCARDDEMGYDIDGHYWRNALDVWGQGTMVTVSP
chain 2: QSALTQPASVSGSPGQSITISCTGTSSDVGGHNYVSWYQQHPGKVSKLMIYDVTKRPSGVSSRFSGSKSGNTASLTISGLQAEDEAHYYCSSYRTSSTLVFGGGTKLTVL
B7: BD55-6594 (protein)
chain 1: QLQLQESGPGLVKPSETLSLTCTVSGGSISSSSFYWGWVRQPPGKGLEWIGNIFYTGITYSNPSLESRVTISVDTSKNQFSLKLSSVTAADTAVFYCARLERTSRSYDLWGQGTLVTVSS
chain 2: QSALTQPRSVSGSPGQSVTISCAGTSSDVGTYQYVSWYQRHPGKAPKLIIQYVTERPSGVPDRFSGSKSGNTASLTISGLQAEDEADYYCCSYAGTVVFGGGTKLTVL
B8: BD55-1273 (protein)
chain 1: QLQLQESGPGLVKPSETLSLTCTVSGGSISSKNFYWGWIRQPPGKGLEWIGSINYSGSTYYNPSLKSRDTISVDTSKNQFSLKLKSVTAADTAVYYCARHEFYFDRRSDMVLDAFDIWGQGTMVTVSS
chain 2: EIVLTQSPGTLSLSPGERATLSCRASQSVRSAYLAWYQQRPGQAPRLLISGASSRATGIPDRFSGSGSGTDFTLTISRLEPEDFALYYCQQYGSSPYTFGQGTKLEIK
B9: BD55-6596 (protein)
chain 1: DVQLVESGGGLVQPGGSLRLSCSASGFTFSNYAMHWVRQTPGKTLEYVSSITRDGGGTFYADSVKGRFTISRDNSKSTLFLQMGSLRTDDTALYYCVRETINTVMLVLDLWGQGTLATVSS
chain 2: DIPMTQSPSSLSASVGDRVTITCRAPQTINNFLNWYQLKPGKAPKLLIYGASNLQSGVPSRFSGSGSGTEYTLTISSLQPEDLATYYCQQTYITPQFTFGRGTKVEIK
B10: BD55-6597 (protein)
chain 1: QVQLVQSGAEVKKPGSSVKVSCRASGGTFGSYGISWVRQAPGQGLEWMGRIVPFVTRPDYAQKYQGRVTLTADEATRTAYMELSTLRSEDTAVYYCAGDSLNSAAASGSPPVGWWGQGTLVTVSS
chain 2: DIVMTQSPDSLAVSLGERATINCKSSQSVLYNSNNQNYLAWYQQKPGQPPKLLIYWASTRGSGVPDRFSGSGSGTDFTLTISSLQAEDVAVYYCQQYYRTPLTFGPGTKVDLK
B11: BD55-6601 (protein)
chain 1: EVQLVESGGDLVQPGGSLRLSCSASGFTFSNYVMHWVRQAPGKGLECVSAITIDGSNTYYVDSVKGRFTVSRDNSKNTLYLQMSSLRTDDTAVYYCVKDFSSNYVHYYYYMDVWGKGTTVTVSS
chain 2: DIQMTQSPSSLPASVGDRVTITCRASQTISNYLNWYQQKTGKAPKLLIHSASTLHDGVPSRFSASGSGTDFTLTINSLQPEDFATYYCQQSSSTPLTFGGGTKVEI
B12: BD55-6602 (protein)
chain 1: EVHLVESGGGLVQPGRSLRLSCTASGFTFEDYAMNWVRQAPGKGLEWVSGISWNSGTIAYADSVKGRFTMSRDNDKKSLYLQMNSLRSEDTALYYCAKGRVNWVVTFMDVWGQGTTVTVSS
chain 2: EIVMTQIPLSLSVTPGQPASISCKSSQSLLYSDGKTYVNWYLQKPGQSPQLLIYELSNRFSGVPDRFSGSGSGTDFTLKISRVEAEDVGVYYCMQSIQFPLTFGGGTKVEIK

molecular target: SARS-CoV-2 Omicron BA.1 spike pseudovirus; assay: pseudovirus neutralization IC50; higher = weaker neutralization
Method: (§1)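 Single-round VSV luciferase pseudovirus mixed with antibody dilutions for 1 h and put on Huh-7 cells for about a day; IC50 from the dose curve.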

| Binder | pseudovirus neutralization IC50 [µg/mL] |
| --- | --- |
| B1 | > 10 |
| B2 | > 10 |
| B3 | 3.84 |
| B4 | > 10 |
| B5 | 1.49 |
| B6 | > 10 |
| B7 | > 10 |
| B8 | > 10 |
| B9 | > 10 |
| B10 | > 10 |
| B11 | 2.51 |
| B12 | > 10 |

molecular target: SARS-CoV-2 Omicron BA.2 spike pseudovirus; assay: as above
Method: as §1

| Binder | pseudovirus neutralization IC50 [µg/mL] |
| --- | --- |
| B1 | > 10 |
| B2 | > 10 |
| B3 | 6.19 |
| B4 | > 10 |
| B5 | 2.02 |
| B6 | > 10 |
| B7 | > 10 |
| B8 | > 10 |
| B9 | > 10 |
| B10 | > 10 |
| B11 | 4.59 |
| B12 | > 10 |

molecular target: SARS-CoV-2 Omicron BA.2.75 spike pseudovirus; assay: as above
Method: as §1

| Binder | pseudovirus neutralization IC50 [µg/mL] |
| --- | --- |
| B1 | > 10 |
| B2 | > 10 |
| B3 | 7.7 |
| B4 | > 10 |
| B5 | 2.46 |
| B6 | > 10 |
| B7 | > 10 |
| B8 | > 10 |
| B9 | > 10 |
| B10 | > 10 |
| B11 | 5.63 |
| B12 | > 10 |

molecular target: SARS-CoV-2 Omicron BA.5 spike pseudovirus; assay: as above
Method: as §1

| Binder | pseudovirus neutralization IC50 [µg/mL] |
| --- | --- |
| B1 | > 10 |
| B2 | > 10 |
| B3 | 3.81 |
| B4 | > 10 |
| B5 | 3.02 |
| B6 | > 10 |
| B7 | > 10 |
| B8 | > 10 |
| B9 | > 10 |
| B10 | > 10 |
| B11 | 8.41 |
| B12 | > 10 |

molecular target: SARS-CoV-2 Omicron BQ.1.1 spike pseudovirus; assay: as above
Method: as §1

| Binder | pseudovirus neutralization IC50 [µg/mL] |
| --- | --- |
| B1 | > 10 |
| B2 | > 10 |
| B3 | > 10 |
| B4 | > 10 |
| B5 | > 10 |
| B6 | > 10 |
| B7 | > 10 |
| B8 | > 10 |
| B9 | > 10 |
| B10 | > 10 |
| B11 | > 10 |
| B12 | > 10 |

molecular target: SARS-CoV-2 Omicron XBB spike pseudovirus; assay: as above
Method: as §1

| Binder | pseudovirus neutralization IC50 [µg/mL] |
| --- | --- |
| B1 | > 10 |
| B2 | > 10 |
| B3 | > 10 |
| B4 | > 10 |
| B5 | > 10 |
| B6 | > 10 |
| B7 | > 10 |
| B8 | > 10 |
| B9 | > 10 |
| B10 | > 10 |
| B11 | > 10 |
| B12 | > 10 |

molecular target: SARS-CoV-2 early D614G spike pseudovirus; assay: as above
Method: as §1

| Binder | pseudovirus neutralization IC50 [µg/mL] |
| --- | --- |
| B1 | > 10 |
| B2 | > 10 |
| B3 | 4.8 |
| B4 | > 10 |
| B5 | 1.66 |
| B6 | > 10 |
| B7 | > 10 |
| B8 | 0.0461 |
| B9 | > 10 |
| B10 | > 10 |
| B11 | 8.79 |
| B12 | > 10 |

From the supplement of paper PMC9931576
